In publication PMC6856128 (Scientific Reports, 2019):

System: O=C(O)C(=O)CS
Assay: purified protein
Settings: pH 8.0; 37.0 °C

## CysA2 (Mycobacterium tuberculosis H37Rv)
  Km: 7.02 ± 0.05 mM
